# Test results from US6841566B2, “Viral polymerase inhibitors” (Boehringer Ingelheim, Ltd., priority 2001, dated 2005).
# Sequences of proteins named here, by UniProt entry; tags and fusion partners are left off. A line that says so, or that is headed by a name, gives the form on record, which may keep a tag or linker. Residues count along the entry.
# UniProt P26663, 2420-3010 with tags or gaps with the stated changes: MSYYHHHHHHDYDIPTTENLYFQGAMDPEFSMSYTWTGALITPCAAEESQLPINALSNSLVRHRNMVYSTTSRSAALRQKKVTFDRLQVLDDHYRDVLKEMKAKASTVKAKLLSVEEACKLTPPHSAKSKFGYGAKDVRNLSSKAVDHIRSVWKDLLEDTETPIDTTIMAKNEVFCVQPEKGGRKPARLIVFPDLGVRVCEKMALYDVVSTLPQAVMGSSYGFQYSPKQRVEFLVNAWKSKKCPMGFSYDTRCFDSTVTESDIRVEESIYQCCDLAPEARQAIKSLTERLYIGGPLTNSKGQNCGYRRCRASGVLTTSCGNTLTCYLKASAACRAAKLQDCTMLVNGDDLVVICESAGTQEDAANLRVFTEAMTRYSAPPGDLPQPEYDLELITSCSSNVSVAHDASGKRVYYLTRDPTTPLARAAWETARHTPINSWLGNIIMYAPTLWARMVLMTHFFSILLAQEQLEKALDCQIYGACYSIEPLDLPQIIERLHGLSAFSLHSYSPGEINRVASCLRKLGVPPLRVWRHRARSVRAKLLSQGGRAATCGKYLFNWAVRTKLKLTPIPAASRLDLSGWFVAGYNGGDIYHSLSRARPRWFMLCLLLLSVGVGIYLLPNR
# Tests used:
# [1] = system: Huh7 cells that stably maintain a subgenomic HCV replicon (S22.3 cell-line); assay: Cell based HCV RNA replication assay (S22.3 replicon cells, real-time RT-PCR); conditions: 72 hours
# Procedure: Huh7 cells that stably maintain a subgenomic HCV replicon were established as previously described (Lohman et al., 1999. Science 285: 110-113) and designated as the S22.3 cell-line. S22.3 cells were maintained in Dulbecco's Modified […] Medium (DMEM) supplemented with 10% FBS and 0.5 mg/mL neomycin (Standard Medium). During the assay, DMEM medium supplemented with 10% FBS, containing 0.5% DMSO and lacking neomycin was used (Assay Medium). 16 hours prior to compound addition, S22.3 cells are trypsinized and diluted to 100 000 cells/ml in Standard Medium. 100μL (10 000 cells) are distributed into each well of a 96-well plate. The plate was then incubated at 37° C. with 5% CO2 until the next day.
# 10 μL of test compound (in 100% DMSO) was added to 2 ml of Assay Medium for a final DMSO concentration of 0.5% and the solution was sonicated for 15 min and filtered through a […] Millipore Filter Unit. 900 μl was transferred into row A of a Polypropylene Deep-Well Titer Plate. Rows B to H, contain 400 μL aliquots of Assay Medium (containing 0.5% DMSO), and were used to prepare serial dilutions (1/2) by transferring 400 μl from row to row (no compound was included in row H).
# Cell culture medium was aspirated from the 96-well plate containing the S22.3 cells. […]
# RNA was quantified on the STORM® system (Molecular Dynamics®) using the RiboGreen® RNA Quantification Kit (Molecular Probes®). […]
# [2] = target: hepatitis C virus RNA dependant polymerase (NS5B) (Hepatitis C virus genotype 1b, UniProt P26663); conditions: HCV NS5B polymerase assay of Example 22
smiles,measurement,setting,value
"C=CC1CC1(NC(=O)c1ccc2c(c1)nc(-c1ccoc1)n2C1CCCCC1)C(=O)Nc1ccc(/C=C/C(=O)O)cc1 (single isomer, unassigned)",EC50,[1],< 5 µM
same,IC50,[2],< 0.5 µM
